Source: patent publication US20170281749A1

Target: CH505TF gp120 Δ7 Monomer
Assay: SPR

Q: 2G12 (-CHO) was tested. Which Kd did it give?
A: Its Kd is 656 nM.

Q: How did the Kd turn out when 19b (V3) was run?
A: The Kd was 9.7 nM.

Q: 697 D (V2) was tested. Which Kd did it give?
A: Its Kd is 564 nM.

Q: A32 (C1) was tested. Which Kd did it give?
A: The Kd was 0.1 nM.

Q: How did the Kd turn out when CH01 (V1-V2) was run?
A: The Kd was over 100000 nM.

Q: CH58 (V2) was tested. Which Kd did it give?
A: The Kd was 278 nM.

Q: CH103_UCA (CD4 bs) was tested. Which Kd did it give?
A: Its Kd is 179 nM.

Q: CH106 (CD4 bs) was tested. Which Kd did it give?
A: Its Kd is 6.5 nM.

Q: How did the Kd turn out when F105 (CD4 bs) was run?
A: Its Kd is 448 nM.

Q: Which Kd does the source give for PG9 (V1-V2) here?
A: Its Kd is 926 nM.

Q: Which Kd does the source give for PGT128 (-CHO) here?
A: Its Kd is 154 nM.

Q: For VRC01 (CD4 bs), which Kd is on record?
A: The Kd was 8.4 nM.
